# Measurements: ChEMBL document CHEMBL1687791, “Identification and characterization of four azole-resistant erg3 mutants of Candida albicans” (2010)
# Test system: Candida albicans
# Assay: Antifungal activity against Candida albicans isolate 6 assessed as lanosterol/obtusifoliol content in total sterol composition at 0.5 times MIC by GC-MS analysis
# Format: functional
smiles,measurement,value
OC(Cn1cncn1)(Cn1cncn1)c1ccc(F)cc1F [FLUCONAZOLE],Activity,20.2%
